Laboratory results: PubChem BioAssay AID1224833 (University of Georgia, 2016)
In all, the deposit lists about 12,000 reagents; shown is a part drawn at random. In the full data, about 5,600 (46%) were called active. 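Active calls cover z-scores past 1 in both directions, so they include lowered as well as raised rotavirus replication.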 A number with no mark means an inactive call.

Screen: 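Host factors restraining rotavirus as candidate antiviral genes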 (primary screen)
Cell system: monkey MA104 kidney cells
Knock-down reagent: siRNA pool against human genes, 50 nM
Duration: 48 h knock-down before infection; read 24 h after infection
Conditions: infection with rotavirus strain RV3 two days after transfection; infectious dose for this stage not given
Read-out: 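Rotavirus antigen per well by fluorescent immunoassay, normalised to non-targeting control wells on each plate and given as a standard z-score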
Scale: z-score vs non-targeting control: higher = more rotavirus replication than with non-targeting control
Rule for the call: In these data the active calls have z-score vs non-targeting control at about -1 or lower, or at about 1 or higher
Calls: active = z-score beyond 1 either way; inactive = z-score within 1 of zero

The first 4 entries, to show the layout:
| target gene | z-score vs non-targeting control |
| --- | --- |
| MSN | 0.306 |
| BCL2L12 | -1.15 (active) |
| LINGO1 | 0.0185 |
| CYB561D2 | 1.37 (active) |

Main list, from the first entry:
| target gene | z-score vs non-targeting control |
| --- | --- |
| MSN | 0.306 |
| BCL2L12 | -1.15 (active) |
| LINGO1 | 0.0185 |
| CYB561D2 | 1.37 (active) |
| PROCR | -1.35 (active) |
| UTP15 | -0.827 |
| ALKAL1 | -0.347 |
| STMN2 | -2.16 (active) |
| EGLN1 | 3.2 (active) |
| SNX10 | 1.05 (active) |
| ZIC3 | -2.83 (active) |
| TMEM35A | 0.639 |
| TAL1 | 0.472 |
| WNT7B | 0.116 |
| SGO2 | -0.817 |
| CST9L | 0.168 |
| RUSC1-AS1 | -1.31 (active) |
| SRSF1 | -0.0688 |
| OR10G8 | 0.871 |
| LYRM7 | -0.836 |
| KRTAP13-2 | 0.659 |
| UFM1 | 0.616 |
| RYBP | -0.711 |
| CNTF | 3.06 (active) |
| WRN | -2.1 (active) |
| SPACA1 | 0.161 |
| WHAMM | 0.523 |
| KCNG2 | -0.249 |
| SMAGP | -2.12 (active) |
| PBX3 | -0.966 |
| PLA2G5 | -0.57 |
| PSMD6 | 1.73 (active) |
| MS4A8 | 0.683 |
| AQP2 | -1.06 (active) |
| LCT | -0.889 |
| MAGEC2 | -1.33 (active) |
| NCAM1 | -0.351 |
| PER3 | 0.639 |
| DOK5 | -0.443 |
| PLS1 | -0.306 |
| IGSF8 | -1.45 (active) |
| ARHGEF7 | 1.08 (active) |
| MEAK7 | 1.38 (active) |
| PICK1 | -0.979 |
| SDR16C5 | 1.04 (active) |
